In PMC8866119:

Target: SARS-CoV-2 wild-type RBD (SARS-CoV-2) (UniProt P0DTC2)
Test: BLI

**Q.** LY-CoV016 was tested. Which Kd did it give?
**A.** 3.27 nM

**Q.** What about the koff of the same substance?
**A.** 0.00291 s⁻¹
